The values that follow come from patent US20230111504A1, “COR[…] AND AVERMECTINS” (Huvepharma EOOD, priority 2020, published 2023).

Sequences of proteins named here, by UniProt entry; tags and fusion partners are left off. A change or cut given only in a name is not applied to a line headed by its entry.
UniProt P11712, whole entry: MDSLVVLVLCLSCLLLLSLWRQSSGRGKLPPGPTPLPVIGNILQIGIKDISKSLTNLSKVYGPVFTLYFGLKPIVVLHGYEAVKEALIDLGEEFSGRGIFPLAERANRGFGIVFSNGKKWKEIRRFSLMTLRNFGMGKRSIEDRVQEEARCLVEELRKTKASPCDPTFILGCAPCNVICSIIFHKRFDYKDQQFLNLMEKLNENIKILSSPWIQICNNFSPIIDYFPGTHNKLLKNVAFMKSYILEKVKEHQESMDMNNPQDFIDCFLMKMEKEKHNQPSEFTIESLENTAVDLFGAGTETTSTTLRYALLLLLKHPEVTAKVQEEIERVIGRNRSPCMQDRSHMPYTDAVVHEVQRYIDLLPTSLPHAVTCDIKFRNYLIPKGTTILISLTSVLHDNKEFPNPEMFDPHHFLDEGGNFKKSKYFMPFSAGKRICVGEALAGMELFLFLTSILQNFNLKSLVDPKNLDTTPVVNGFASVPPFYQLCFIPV
UniProt P05181: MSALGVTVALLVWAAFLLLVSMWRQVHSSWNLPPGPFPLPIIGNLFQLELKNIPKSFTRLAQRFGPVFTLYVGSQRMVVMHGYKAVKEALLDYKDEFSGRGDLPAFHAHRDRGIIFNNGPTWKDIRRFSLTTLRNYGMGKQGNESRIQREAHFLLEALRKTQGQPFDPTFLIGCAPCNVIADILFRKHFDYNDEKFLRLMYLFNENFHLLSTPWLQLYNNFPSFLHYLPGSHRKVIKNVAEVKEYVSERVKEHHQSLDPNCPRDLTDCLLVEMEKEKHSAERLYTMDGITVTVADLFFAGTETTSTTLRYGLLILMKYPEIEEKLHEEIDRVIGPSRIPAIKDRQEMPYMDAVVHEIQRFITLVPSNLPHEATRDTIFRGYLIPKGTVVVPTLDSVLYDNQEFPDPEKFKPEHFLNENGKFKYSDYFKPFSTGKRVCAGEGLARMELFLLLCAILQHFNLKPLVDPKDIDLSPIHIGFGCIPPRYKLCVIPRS
UniProt P08684, whole entry: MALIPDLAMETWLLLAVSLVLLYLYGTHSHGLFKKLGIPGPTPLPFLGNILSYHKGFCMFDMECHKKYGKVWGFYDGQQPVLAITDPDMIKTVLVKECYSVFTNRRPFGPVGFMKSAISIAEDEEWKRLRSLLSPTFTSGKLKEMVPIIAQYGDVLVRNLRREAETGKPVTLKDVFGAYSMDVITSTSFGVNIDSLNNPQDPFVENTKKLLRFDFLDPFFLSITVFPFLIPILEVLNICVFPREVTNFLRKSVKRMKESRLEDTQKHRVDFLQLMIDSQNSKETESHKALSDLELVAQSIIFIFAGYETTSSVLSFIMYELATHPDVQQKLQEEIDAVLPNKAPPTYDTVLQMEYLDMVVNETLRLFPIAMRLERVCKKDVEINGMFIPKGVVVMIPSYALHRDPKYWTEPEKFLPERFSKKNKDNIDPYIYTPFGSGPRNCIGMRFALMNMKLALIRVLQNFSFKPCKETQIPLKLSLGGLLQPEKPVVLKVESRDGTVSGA
UniProt P10635, whole entry: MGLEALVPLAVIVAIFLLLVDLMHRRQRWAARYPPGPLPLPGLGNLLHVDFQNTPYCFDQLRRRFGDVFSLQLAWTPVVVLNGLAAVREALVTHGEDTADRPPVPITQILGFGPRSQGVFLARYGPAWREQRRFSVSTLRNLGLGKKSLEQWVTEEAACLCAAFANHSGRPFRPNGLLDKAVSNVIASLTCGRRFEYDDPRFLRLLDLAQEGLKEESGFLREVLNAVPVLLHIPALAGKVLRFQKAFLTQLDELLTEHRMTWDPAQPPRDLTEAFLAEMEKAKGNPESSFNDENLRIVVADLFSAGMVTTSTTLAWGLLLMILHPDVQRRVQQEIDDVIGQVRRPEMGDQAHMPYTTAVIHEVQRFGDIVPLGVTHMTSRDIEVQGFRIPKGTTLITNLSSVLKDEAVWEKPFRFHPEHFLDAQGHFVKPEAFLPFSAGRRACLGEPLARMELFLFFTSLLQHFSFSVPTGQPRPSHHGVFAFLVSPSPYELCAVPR

Data set [1] concerns the target T1, CYP2C9 (Homo sapiens, UniProt P11712).
T1 construct: from tissue; host or cells: human liver microsomes
The conditions noted are these: clinically relevant concentrations, human liver microsomes; cited from earlier work. A general note: Liver microsomes are vesicles of endoplasmic reticulum, rich in cytochrome P450 enzymes.

Data set [2] has as its target T2, CYP2E1 (Homo sapiens, UniProt P05181).
T2 construct: from tissue; host or cells: human liver microsomes
The note with it: clinically relevant concentrations, human liver microsomes; cited from earlier work.

The conditions of data set [3]: acute oral, rhesus monkeys; cited from earlier work.
Data set [4] has as its target T3, CYP3A4 (Homo sapiens, UniProt P08684).
T3 construct: host or cells: human liver microsomes and recombinant CYP450 enzymes
The conditions noted are these: human liver microsomes and recombinant CYP450 enzymes; cited from earlier work.

Data set [5] concerns the target T4, CYP2D6 (Homo sapiens, UniProt P10635).
T4 construct: from tissue; host or cells: human liver microsomes
The conditions noted are these: clinically relevant concentrations, human liver microsomes; cited from earlier work.

Data set [6] has as its target T3, CYP3A4. The note with it: clinically relevant concentrations, human liver microsomes; cited from earlier work.
For data set [7] the following is noted: 30 mg oral, high-fat (48.6 g of fat) meal vs fasted; cited from earlier work.
The test system of data set [8] is COVID-19. As to the kind of experiment: COVID-19 clinical trial: clinical improvement on WHO 9-category ordinal scale. Type of data set: in vivo, human. The method, then: Inclusion Criteria • 1. Male or female patients at least 18 years and up to 75 years old • 2. Signed informed consent • 3. Admitted to hospital for treatment of COVID-19. • 4. Patient within 7 days from symptom onset and within 72 hours after laboratory diagnosis (SARS-CoV-2 RT-PCR) • 5. Mild to Moderate COVID-19 disease defined as clinical status category up to 3 on the WHO 9-point ordinal scale, and/or NEWS2 score of 0 to 4 inclusive. • Hospitalized, no oxygen treatment • 6. Presence of at least 1 symptom characteristic for COVID-19 disease, e.g. fever, cough, sore throat, myalgia, fatigue, GI disorders, skin lesions, anosmia, ageusia, headache, etc • 7. In women of childbearing potential, negative pregnancy test and commitment to use contraceptive method throughout the study.
Patients are screened for 24-36 hours. The patients are randomized on Day 1 and treated with ivermectin/placebo+SoC (if required) for 3 days (Day 1-Day 3). […]
The clinical disease severity during the study will be assessed based on the WHO Ordinal Scale for Clinical Status (Table 2). […]
The same picture was observed on Day 5, with difference 18% (p=0.03 . . . ), regarding the endpoint Clinical improvement. This endpoint was measured using WHO 9-category ordinal scale, developed to have a standardized measure of the COVID-19 disease severity. […]

Consider ivermectin, for which the “inhibition of metabolizing activity of CYP2C9” value in data set [1] is on record as “do not significantly inhibit”. Further, in data set [2], the “inhibition of metabolizing activity of CYP2E1” value is “do not significantly inhibit”. The “minimum toxic dose relative to the clinical dose” value in data set [3] is reported as “approximately 10 fold”. Moreover, the main metabolizing enzyme entry in data set [4] is reported as “primarily metabolized by CYP3A4”. Moreover, the “inhibition of metabolizing activity of CYP2D6” value in data set [5] was “do not significantly inhibit”. Moreover, the “inhibition of metabolizing activity of CYP3A4” value in data set [6] is on record as “do not significantly inhibit”. The “increase in bioavailability after high-fat meal relative to fasted state” value in data set [7] is ~2.5 fold. Besides, the “Odds ratio of clinical improvement” value in data set [8] (fifth and the next days) was “decrease but remain higher”. For the same substance, in data set [8] (fourth day, FIG. 4), the “Odds ratio: chances of clinical improvement versus SoC arm” value was “more than twice higher”.
